Laboratory results: paper PMC5773577 (Scientific Reports, 2018)
Strings that start with PEPTIDE1 are HELM notation: dots part the residues, brackets hold end groups and non-standard residues.

Assay: general procedure: Fmoc solid-phase peptide synthesis; Rink amide-MBHA resin (loading 0.59 mmol/g); DIPCDI, HOBt
Settings: whole synthesis, RP-HPLC area under the peak

| Substance | final HPLC purity [%] |
| --- | --- |
| PEPTIDE1{W.R.[F5-Phe].R.W.[am]}$$$$V2.0 | 98 |
| PEPTIDE1{R.W.[12ADO].W.R.[am]}$$$$V2.0 | 96 |
| PEPTIDE1{W.R.[8AOA].R.W.[am]}$$$$V2.0 | 91 |
| PEPTIDE1{W.R.[12ADO].R.W.[am]}$$$$V2.0 | 95 |
| PEPTIDE1{W.R.[D1Nal].R.W.[am]}$$$$V2.0 | 99 |
| PEPTIDE1{W.R.W.R.W.[am]}$$$$V2.0 | 97 |
| PEPTIDE1{R.[D1Nal].[12ADO].[D1Nal].R.[am]}$$$$V2.0 | 96 |
| PEPTIDE1{W.R.[2trifluoromethylDPhe].R.W.[am]}$$$$V2.0 | 90 |
| PEPTIDE1{R.[D1Nal].[8AOA].[D1Nal].R.[am]}$$$$V2.0 | 94 |
